Results as given in patent publication US20050222408A1, “Heterocyclic amides with anti-tuberculosis activity” (priority 2003, published 2005).

tested on: Vero cells; assay: Cytotoxicity, alamar blue assay against Vero cells; format: cell-based; details: Table 1; ToxIC50 over TB MIC

First: COc1cccc(NC(=O)c2ccc([S+]([O-])c3ccccc3)o2)c1 (stereo not shown) [Compound 38, 5-Benzenesulfinyl-furan-2-carboxylic acid(3-methoxy-phenyl)-amide]
Second: COc1cccc(NC(=O)c2ccc(Sc3ccccc3)o2)c1 [Compound 36, 5-Phenylsulfanyl-furan-2-carboxylic acid(3-methoxy-phenyl)-amide]
The “Therap. Index” value of the first is higher: 10.4 for the first, 1.0 for the second.

First: COc1cc(CNC(=O)c2ccc([N+](=O)[O-])o2)cc(OC)c1OC [Compound 24, 5-Nitro-furan-2-carboxylic acid 3,4,5-trimethoxy-benzylamide]
Second: COc1ccc(CNC(=O)c2ccc([N+](=O)[O-])o2)cc1OC [Compound 23, 5-Nitro-furan-2-carboxylic acid 3,4-dimethoxy-benzylamide]
The “Therap. Index” value of the first is lower: 29.5 for the first, 90.9 for the second.

Going from `O=C(Nc1ccccc1)c1ccc([N+](=O)[O-])o1` [Compound 17, 5-Nitro-furan-2-carboxylic acid phenylamide] to `O=C(Nc1cccc(F)c1)c1ccc([N+](=O)[O-])o1` [Compound 12, 5-Nitro-furan-2-carboxylic acid(3-fluoro-phenyl)-amide], the “Therap. Index” value rises from 2.7 to 11.6.

First: COc1cccc(NC(=O)c2ccc([N+](=O)[O-])o2)c1 [Compound 13, 5-Nitro-furan-2-carboxylic acid(3-methoxy-phenyl)-amide]
Second: O=C(Nc1cccc(Br)c1)c1ccc([N+](=O)[O-])o1 [Compound 11, 5-Nitro-furan-2-carboxylic acid(3-bromo-phenyl)-amide]
The “Therap. Index” value of the first is higher: 23.3 for the first, 9.6 for the second.

Going from `O=C(NCCc1ccccc1)c1ccc([N+](=O)[O-])o1` [Compound 27, 5-Nitro-furan-2-carboxylic acid phenethyl-amide] to `COc1ccc(CCNC(=O)c2ccc([N+](=O)[O-])o2)cc1` [Compound 28, 5-Nitro-furan-2-carboxylic acid [2-(4-methoxy-phenyl)-ethyl]-amide], the “Therap. Index” value rises from 15.7 to 25.6.

Going from `O=C(NC1CCCCC1)c1ccc([N+](=O)[O-])o1` [Compound 15, 5-Nitro-furan-2-carboxylic acid cyclohexylamide] to `O=C(NC1CCc2ccccc21)c1ccc([N+](=O)[O-])o1` (stereo not shown) [Compound 26, 5-Nitro-furan-2-carboxylic acid indan-1-ylamide], the “Therap. Index” value rises from 2.9 to 3.3.

Going from `CC(NC(=O)c1ccc([N+](=O)[O-])o1)c1ccccc1` (stereo not shown) [Compound 30, 5-Nitro-furan-2-carboxylic acid(1-phenyl-ethyl)-amide] to `O=C(NCc1ccccc1Cl)c1ccc([N+](=O)[O-])o1` [Compound 21, 5-Nitro-furan-2-carboxylic acid 2-chloro-benzylamide], the “Therap. Index” value falls from 7.6 to 7.3.

Going from `COc1cccc(NC(=O)c2ccc(S(=O)(=O)c3ccccc3)o2)c1` [Compound 39, 5-Benzenesulfonyl-furan-2-carboxylic acid(3-methoxy-phenyl)-amide] to `COc1cccc(NC(=O)c2ccc(Br)o2)c1` [Compound 33, 5-Bromo-furan-2-carboxylic acid(3-methoxy-phenyl)-amide], the “Therap. Index” value falls from 4.1 to 0.6.

Going from `COc1ccc(CNC(=O)c2ccc([N+](=O)[O-])o2)c(OC)c1` [Compound 22, 5-Nitro-furan-2-carboxylic acid 2,4-dimetboxy-benzylamide] to `COc1ccc(CNC(=O)c2ccc([N+](=O)[O-])o2)cc1` [Compound 20, 5-Nitro-furan-2-carboxylic acid 4-methoxy-benzylamide], the “Therap. Index” value rises from 13.5 to 163.6.

First: O=C(Nc1cccc(Cl)c1)c1ccc([N+](=O)[O-])o1 [Compound 10, 5-Nitro-furan-2-carboxylic acid(3-chloro-phenyl)-amide]
Second: O=C(Nc1cccc(O)c1)c1ccc([N+](=O)[O-])o1 [Compound 35, 5-Nitro-furan-2-carboxylic acid(3-hydroxy-phenyl)-amide]
The “Therap. Index” value of the first is higher: 8.6 for the first, 7.8 for the second.

Going from `O=C(NCc1ccco1)c1ccc([N+](=O)[O-])o1` [Compound 18, 5-Nitro-furan-2-carboxylic acid(furan-2-ylmethyl)-amide] to `CC(NC(=O)c1ccc([N+](=O)[O-])o1)c1ccccc1` (stereo not shown) [Compound 29, 5-Nitro-furan-2-carboxylic acid(1-phenyl-ethyl)-amide], the “Therap. Index” value rises from 0.7 to 16.0.

Compared with `COc1ccc(NC(=O)c2ccc([N+](=O)[O-])o2)cc1` [Compound 14, 5-Nitro-furan-2-carboxylic acid(4-methoxy-phenyl)-amide], `N#Cc1ccc(NC(=O)c2ccc([N+](=O)[O-])o2)cc1` [Compound 19, 5-Nitro-furan-2-carboxylic acid(4-cyano-phenyl)-amide] is lower in “Therap. Index” value: 53.6 for the first, 4.4 for the second.

`COc1ccc(CNC(=O)c2ccc(Br)o2)cc1` [Compound 32, 5-Bromo-furan-2-carboxylic acid 4-methoxy-benzylamide] and `CCOC(=O)c1ccc(C(=O)Nc2cccc(OC)c2)o1` [Compound 40, 5-(3-Methoxy-phenylcarbamoyl)-furan-2-carboxylic acid ethyl ester] are the same in “Therap. Index” value: 0.5 for the first, 0.5 for the second.

Going from `COc1ccc(CCNC(=O)c2ccc([N+](=O)[O-])o2)cc1OC` [Compound 31, 5-Nitro-furan-2-carboxylic acid [2-(3,4-dimethoxy-phenyl)-ethyl]-amide] to `O=C(NC12CC3CC(CC(C3)C1)C2)c1ccc([N+](=O)[O-])o1` [Compound 16, 5-Nitro-furan-2-carboxylic acid adamantan-1-ylamide], the “Therap. Index” value falls from 68.6 to 3.0.
